# Test results taken from the supplement of paper PMC9931576.
# Human monoclonal antibodies against the spike receptor-binding domain (heavy:light variable regions). IC50 against pseudoviruses bearing the spike of naturally observed variants; lower = stronger; >10 µg/ml means not reached at the top dose. No active / inactive call. The stated detection limit is 0.0005 µg/ml; values near or below 0.001 µg/ml lie at the floor of the assay.
# B1: COV2-2539 (protein)
# chain 1: QVQLAQSGAEVKKPGASVKVSCKAGGYTFTSYDINWVRQATGQGLEWMGWMNSNSGNAGYAQKFQGRVTMTRDTSISTAYMELSSLRSEDTAVYYCARMRTGWPTHGRPDDFWGRGTLVTVSS
# chain 2: QSVLTQPPSASGTPGQRVTISCSGSNSNIGSYTVNWYQQFPGTAPKLLIYDNNQRTSGVPDRFSGSKSGTSASLAISGLQSEDEASYYCLAWDDSLNGLVFGGGTKLTVL
# B2: BD56-1397 (protein)
# chain 1: QVQLVQSGAEVKKPGASVRVSCKASGYTFSDYYIHWVRQAPGQGLEWMGIVNPGGQSTAYAQKFQGRVAMTSATSTSTAYMELRSLKSEDTAVYYCARDAAAVPAALGGEYWGQGTLVTVSS
# chain 2: EVVLTQSPATLSLSPGERATLSCRASQSISSYLAWYQQKAGQAPRLLIYDVSNRATGIPARFSGSGSGTDFTLTISSLEPEDFAVYYCQQRSNWPPFTFGPGTKVDIK
# B3: BD56-1398 (protein)
# chain 1: QVQLVQSGAEVKKPGASVKVSCMASRYTFTSYYLHWVRQAPGQGLQWMGIINPSGGSTTYAQKFQGRVTMTSDTSTSTVHMELSSLRSEDTAVYFCARGGVAPNLRGLFDYWGQGTLITVSS
# chain 2: DIQMTQSPSTLSASVGDRVIITCRASQSIHTWLAWYQQKPGKAPSLLIYKASTLESGVPSRFSGSGSGTEFTLTISSLQPDDFATYYCQQYNSFSWTFGQGTKVEIK
# B4: BD56-1401 (protein)
# chain 1: QVQLVESGGGVVQPGRSLRLSCAASGFNFRTYAMHWVRQAPGKGLEWVAIISYDGSIKDYADSVKGRFTISRDNSKNTLYVQMNNLRADDTALYYCAKGGGLYCSATTCSTGYFDYWGQGTLVTVSS
# chain 2: EIVLTQSPGTLSLSPGERATLSCRASQSVSSSYLAWYRQKPGQAPRLLISDASSRAPGIPDRFSGSGSGTDFTLTISRLEPEDFAVYYCQQYGSSPLTFGGGTKVEIK
# B5: BD56-1410 (protein)
# chain 1: QVQLVESGGGVVQPGRSLRLSCAASGFTFRNYGMHWVRQAPGKGLEWVAVIWYDGSNKYYADSVKGRFTISRDNSKNTLFLQMNSLRVEDTAVYYCARDYGVGATMEDYFDYWGQGTLVTVSS
# chain 2: QSVLTQPPSASGTPGQRVSISCSGSSSNIGDNYVYWYQQFPGMAPKLLIYRNSQRPSGVPDRFSASKSGTSASLAISGLRSEDEADYYCAAWDDGLGGWVFGGGTKLTVL
# B6: BD56-1412 (protein)
# chain 1: QVQLVESGGGVVQPGRSLRLSCAASGFTFRHYGMHWVRQAPGKGLEWVAGISFDGDNKYNTDLVKGRFTISRDNSRNTLYLHMNTLRAEDTAIYYCAKMGGTYCAAGNCFASYFDYWGQGTLVTVSS
# chain 2: DIQMTQSPSSLSASVGDRVTITCQTSQGISNYLNWYQHKPGKAPKLLIYGATSLETGVPSRFSGSGSGTDFSFTISSLQPEDVATYYCQQYASLPLAFGGGTKVDLK
# How the values were obtained:
# Assay in all cases: pseudovirus neutralization IC50; higher = weaker neutralization
# [1] = molecular target: SARS-CoV-2 Omicron BA.1 spike pseudovirus
# Description: (§1)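 Single-round VSV luciferase pseudovirus mixed with antibody dilutions for 1 h and put on Huh-7 cells for about a day; IC50 from the dose curve.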
# [2] = molecular target: SARS-CoV-2 Omicron BA.2 spike pseudovirus
# Description: as §1
# [3] = molecular target: SARS-CoV-2 Omicron BA.2.75 spike pseudovirus
# Description: as §1
# [4] = molecular target: SARS-CoV-2 Omicron BA.5 spike pseudovirus
# Description: as §1
# [5] = molecular target: SARS-CoV-2 Omicron BQ.1.1 spike pseudovirus
# Description: as §1
# [6] = molecular target: SARS-CoV-2 Omicron XBB spike pseudovirus
# Description: as §1
# [7] = molecular target: SARS-CoV-2 early D614G spike pseudovirus
# Description: as §1
Binder,pseudovirus neutralization IC50 [1] [µg/mL],pseudovirus neutralization IC50 [2] [µg/mL],pseudovirus neutralization IC50 [3] [µg/mL],pseudovirus neutralization IC50 [4] [µg/mL],pseudovirus neutralization IC50 [5] [µg/mL],pseudovirus neutralization IC50 [6] [µg/mL],pseudovirus neutralization IC50 [7] [µg/mL]
B1,> 10,> 10,> 10,> 10,> 10,> 10,0.186
B2,> 10,> 10,> 10,> 10,> 10,> 10,> 10
B3,> 10,> 10,> 10,> 10,> 10,> 10,> 10
B4,> 10,> 10,> 10,> 10,> 10,> 10,> 10
B5,1.27,0.915,0.34,0.369,> 10,1.82,0.775
B6,> 10,> 10,> 10,> 10,> 10,> 10,> 10
